Compound potency records, mixed from different reports. Data source: NIAID ChemDB in PubChem.

Common to all: tests in culture; species: Mycobacterium tuberculosis

MIC bound: limit read from a one-dose screen.

| compound | read-out | changes | dose | read by | strain or isolate | result |
|---|---|---|---|---|---|---|
| N#Cc1c(-c2cccc3ccccc23)c2c([nH]c1=S)CCCC2 | MIC bound | - | - | BACTEC | H37Rv | >12.5 µg/mL |
| COc1cc([C@@](O)(CCN(C)C)[C@@H](c2cc(-c3ccncc3)cnc2OC)c2cccc(OC)c2F)cc(OC)n1 | MIC90 | - | - | resazurin | H37Rv | 28.06 µM |
| O=c1oc2c(Cl)cc(Cl)cc2c(=O)n1-c1cccc(Cl)c1 | MIC | - | - | - | CNCTC MY331/88 | 7.94 µM |
| CC(C)(C)C1CCc2onc(C(=O)O)c2C1 | MIC | - | - | resazurin | Rv3602c | >128 µM |
| CC(C)[C@H]1CO[C@]23CCN(C(=O)CCCc4ccc(C(F)(F)F)cc4)C[C@H]2CCC(=O)N13 | MIC98 | - | - | resazurin | H37Rv | 1–10 µM |
| COc1ccccc1N1C(=O)/C(=N\OC(=O)c2c(-c3c(Cl)cccc3Cl)noc2C)SC1=S | inhibition | - | 12.8 µg/mL | BACTEC | H37Rv | -12% |
| NCCC[C@H](N)CC(=O)N[C@H]1CNC(=O)[C@H]([C@H]2C[C@H](O)NC(N)=N2)NC(=O)/C(=C/NC(N)=O)NC(=O)[C@H](CO)NC(=O)[C@H](CO)NC1=O | MIC | - | - | - | H37Rv | 5 µg/mL |
| CCc1c2c(nc3ccc(OCc4ccc(F)c(F)c4)cc13)-c1cc3c(c(=O)n1C2)COC(=O)C3(O)CC | MIC | - | - | resazurin | H37Rv | 24.1 µM |
| NC1CCN(c2c(F)cc3c(=O)c(C(=O)O)cn(C4CC4)c3c2Cl)C1 | MIC50 | - | - | - | 20 strains | 0.5 µg/mL |
| COc1ccc(C(=O)Nn2c(C)nc3scc(-c4ccco4)c3c2=O)cc1 | MIC | - | - | - | CNCTC MY331/88 | 9 µM |
| CCc1c2c(nc3ccc(OCc4ccc(F)cc4C(F)(F)F)cc13)-c1cc3c(c(=O)n1C2)COC(=O)C3(O)CC | MIC | Extensively drug-resistant | - | resazurin | XDR | 11 µM |
| CC(=O)O.Nc1nc(=O)nc2[nH]c3c4cccc5cccc(c3nc12)c54 | MIC bound | - | - | BACTEC | H37Rv | >12.5 µg/mL |
| Cc1nc2ccccc2nc1C(=O)CN1CCN(C)CC1 | MIC | - | - | resazurin | H37Rv | 50 µg/mL |
| CCCCCCCC1(N=[N+]=[N-])C(=O)c2ccccc2N(C)C1=O | MIC bound | - | - | BACTEC | H37Rv | >12.5 µg/mL |
| Cc1nc2ccccc2nc1C(=O)CSCCN | MIC | - | - | resazurin | H37Rv | 50 µg/mL |
| Cc1ccc(Nc2nc(NNC(=O)c3ccncc3)nc(Nc3ccccn3)n2)cc1 | inhibition | - | 0.1127 µM | BACTEC / radiometric | H37Rv | 77% |
| Cc1nc2scc(-c3ccco3)c2c(=O)n1/N=C/c1ccc(F)cc1 | MIC | - | - | - | CNCTC MY331/88 | 9 µM |
| O=C(N/N=C/c1ccc(Cl)cc1Cl)c1ccccc1-c1nc2ccccc2[nH]1 | inhibition | - | 0.031 µg/mL | - | H37Rv | 96% |
| NN=C1CCC(=NN)CC1 | MIC bound | - | - | BACTEC | H37Rv | >12.5 µg/mL |
| O=c1oc2c(Br)cc(Br)cc2c(=O)n1-c1ccc(Cl)cc1 | MIC | - | - | - | CNCTC MY331/88 | >15.8 µM |
| O=C(NN1C(=O)C(Cl)C1c1ccc(Cl)cc1)c1ccccc1-c1nc2ccccc2[nH]1 | inhibition | - | 0.031 µg/mL | - | H37Rv | 97% |
| O=C(/C=C/c1ccccc1)Nc1cccc(CN2CCOCC2)c1 | MIC | - | - | - | 103471 | 8 µg/mL |
| O=C(NN1C(=O)C(Cl)C1c1ccco1)c1ccccc1-c1nc2ccccc2[nH]1 | EC50 | - | - | - | H37Rv | <0.031 µg/mL |
| Cc1ccc2c3c(nsc13)-c1ccccc1C2=O | MIC bound | - | - | BACTEC | H37Rv | ≤12.5 µg/mL |
| NC(=O)N/C=C1\NC(=O)C(CO)NC(=O)C(CO)NC(=O)C(N)CNC(=O)C(C2CCN=C(N)N2)NC1=O | MIC | - | - | - | H37Rv | 5 µg/mL |
| COC1CC(=O)c2cccc(O)c2C1=O | MIC | - | - | - | H37Rv | 0.2 µg/mL |
| NC(N)=NNCC(=O)Nc1ccc(S(=O)(=O)c2ccc(NC(=O)CNN=C(N)N)cc2)cc1 | inhibition | - | 12.5 µg/mL | BACTEC | H37Rv | 9% |
| Cc1nc2scc(-c3ccco3)c2c(=O)n1NC(=O)c1ccc([N+](=O)[O-])cc1 | MIC | - | - | - | CNCTC MY331/88 | 16 µM |
| O=c1oc2c(Cl)cc(Cl)cc2c(=O)n1-c1ccc(Br)cc1 | MIC | - | - | - | CNCTC MY331/88 | 15.8 µM |
| O=C(Nc1cccc(CN2CCOCC2)c1)c1ccc(-c2ccccc2)cc1 | MIC | - | - | - | 103471 | 8 µg/mL |
| O=C1C(Cl)=C(Nc2ccccn2)C(=O)c2ccccc21 | MIC bound | - | - | BACTEC | H37Rv | ≤12.5 µg/mL |
| O=C(Nc1ccc(Cn2ccnc2)cc1)c1ccc(-c2ccccc2)cc1 | MIC | - | - | - | 103471 | >16 µg/mL |
| O=C(/C=C/c1ccc([N+](=O)[O-])o1)N1CCN(Cc2ccccc2)CC1 | MIC | - | - | BACTEC | H37Rv | ≥12.5 µg/mL |
| COc1cc(/C=N/NC(=O)c2ccccc2-c2nc3ccccc3[nH]2)cc(OC)c1OC | EC50 | - | - | - | H37Rv | >0.031 µg/mL |
| Cc1nc2ccccc2nc1C(=O)CN(C)Cc1ccccc1 | MIC | - | - | resazurin | H37Rv | 50 µg/mL |
| C=C1C(=O)O[C@H]2/C=C(\C)C[C@@H]3C=C(CC/C=C(\C)CC[C@H]12)C(=O)O3 | MIC | - | - | BACTEC | H37Rv | ≥12.8 µg/mL |
| Cc1nc2ccccc2nc1C(=O)CNc1nccs1 | MIC | - | - | resazurin | H37Rv | 50 µg/mL |
| O=c1oc2c(Br)cc(Br)cc2c(=O)n1-c1ccccc1 | MIC | - | - | - | CNCTC MY331/88 | 63.1 µM |
| CN1CCN(Cc2ccccc2NC(=O)c2ccc(Cl)cc2)CC1 | MIC | - | - | - | 103471 | >16 µg/mL |
| CNC(=O)OCc1c(C)oc(-c2ccccc2)c1COC(=O)NC | MIC bound | - | - | BACTEC | H37Rv | >12.5 µg/mL |
| CCc1c2c(nc3ccc(OCc4cccc(F)c4)cc13)-c1cc3c(c(=O)n1C2)COC(=O)C3(O)CC | MIC | - | - | resazurin | H37Rv | 24.97 µM |
| CC(C)[C@H]1CCO[C@]23CCN(Cc4ccc(C(F)(F)F)cc4)C[C@H]2CCC(=O)N13 | MIC98 | - | - | resazurin | H37Rv | >10 µM |
| O=C(N/N=C/c1ccc(O)cc1)c1ccccc1-c1nc2ccccc2[nH]1 | inhibition | - | 0.031 µg/mL | - | H37Rv | 61% |
| CC(C)[C@H]1CCO[C@]23CCN(Cc4ccc(C(F)(F)F)cc4)C[C@H]2CC(=O)N13 | MIC98 | - | - | resazurin | H37Rv | >10 µM |
| Cc1ccccc1Nc1nc(NNC(=O)c2ccncc2)nc(Nc2ccccn2)n1 | inhibition | - | 0.111 µM | BACTEC / radiometric | H37Rv | 71% |
| O=c1oc2c(Cl)cc(Cl)cc2c(=O)n1-c1ccc(Cl)cc1 | MIC | - | - | - | CNCTC MY331/88 | 15.8 µM |
| O=C(/C=C/c1ccccc1)Nc1cccc(Cn2ccnc2)c1 | MIC | - | - | - | 103471 | >16 µg/mL |
| NC[C@H]1O[C@H](O[C@H]2[C@H](O)[C@@H](O[C@H]3O[C@H](CO)[C@@H](O)[C@H](N)[C@H]3O)[C@H](N)C[C@@H]2N)[C@H](O)[C@@H](O)[C@@H]1O | MIC | - | - | - | TN933 (CB) | 32 µg/mL |
| COc1cc(C2C3=C(CCCC3=O)N(c3ccc(C)cc3)C3=C2C(=O)CCC3)c([N+](=O)[O-])cc1OC | MIC bound | - | - | resazurin | H37Rv | >6.25 µg/mL |
| COc1cc(C(O)(CCN(C)C)C(c2cc(-c3ccccc3C#N)cnc2OC)c2cccc(OC)c2F)cc(OC)n1 | MIC90 | - | - | resazurin | H37Rv | 16.8 µM |
| O=C(N/N=C/c1ccccc1O)c1ccccc1-c1nc2ccccc2[nH]1 | inhibition | - | 0.031 µg/mL | - | H37Rv | 68% |
| CC(C)(C)C1CCc2onc(C(=O)Nc3cnn(Cc4ccc(C(=O)NCc5ccccc5)cc4)c3)c2C1 | MIC | - | - | resazurin | Rv3602c | >128 µM |
| O=C(/C=C/c1ccccc1)Nc1ccc(Cn2ccnc2)cc1 | MIC | - | - | - | 103471 | >16 µg/mL |
| Cc1cc(S(=O)(=O)Nc2nc(N)nc3nc4ccccc4n23)c(S)cc1Cl | MIC bound | - | - | resazurin | H37Rv | >6.25 µg/mL |
| CCc1c2c(nc3ccc(OCc4ccccc4[N+](=O)[O-])cc13)-c1cc3c(c(=O)n1C2)COC(=O)C3(O)CC | MIC | - | - | resazurin | H37Rv | 5.92 µM |
| CC(C)[C@H]1CO[C@]23CCN(Cc4ccc(C(F)(F)F)cc4)C[C@H]2CC(=O)N13 | MIC98 | - | - | resazurin | H37Rv | 1–10 µM |
| O=c1oc2c(ccc3c(O)cccc32)c2c1CCCC2 | inhibition | - | 12.5 µg/mL | BACTEC | H37Rv | -49% |
| CCc1c2c(nc3ccc(OCc4c(F)c(F)c(F)c(F)c4F)cc13)-c1cc3c(c(=O)n1C2)COC(=O)C3(O)CC | MIC | - | - | resazurin | H37Rv | 5.46 µM |
| O[C@]12C=C(Cc3nccc4ccccc34)[C@@H]3CCN(CCCC/C=C\CC1)C[C@@]31C[C@@H]3CCCCCCN3C12 | MIC | - | - | - | H37Rv | 7.6 µg/mL |
| O=C(NNc1nc(Nc2ccc(Cl)cc2)nc(Nc2ccccn2)n1)c1ccncc1 | inhibition | - | 0.025 µM | BACTEC / radiometric | H37Rv | 94% |
| CC(C)[C@H]1CS[C@]23CCN(Cc4ccccc4)C[C@H]2CCC(=O)N13 | MIC98 | - | - | resazurin | H37Rv | 1–10 µM |
| Cc1nc(N)sc1-c1ccccc1 | MIC bound | - | - | BACTEC | H37Rv | >6.25 µg/mL |
| CN(C)c1ccc(-n2c(=O)oc3c(Br)cc(Br)cc3c2=O)cc1 | MIC | - | - | - | CNCTC MY331/88 | >126 µM |
| CCc1c2c(nc3ccc(OCc4ccccc4Cl)cc13)-c1cc3c(c(=O)n1C2)COC(=O)C3(O)CC | MIC | Extensively drug-resistant | - | resazurin | XDR | 24.18 µM |
| NC(=O)NCCCC(N)C(=O)O | MIC bound | - | - | BACTEC | H37Rv | >12.5 µg/mL |
| COc1cc([C@@](O)(CCN(C)C)[C@H](c2cc(-c3ccc(Cl)cc3)cnc2OC)c2cccc(OC)c2F)cc(OC)n1 | MIC90 | - | - | resazurin | H37Rv | >10 µM |
| O=C(Nc1cccc(Cn2ccnc2)c1)c1ccc(-c2ccccc2)cc1 | MIC | - | - | - | 103471 | >16 µg/mL |
| CN(C)c1ccc(/C=N/NC(=O)c2ccccc2-c2nc3ccccc3[nH]2)cc1 | inhibition | - | 0.031 µg/mL | - | H37Rv | 33% |
| [O-][n+]1ccc(CC2=C[C@@]3(O)CC/C=C\CCCCN4CC[C@@H]2[C@]2(C[C@@H]5CCCCCCN5C23)C4)cc1 | MIC | - | - | - | H37Rv | 27.6 µg/mL |
| Cc1[nH]nc(C(N)=O)c1N=NN(C)C | inhibition | - | 12.5 µg/mL | BACTEC | H37Rv | 79% |
| CC(C)[C@H]1CO[C@]23CCN(C4CCC4)C[C@H]2CCC(=O)N13 | MIC98 | - | - | resazurin | H37Rv | >10 µM |
| COc1cc([C@](O)(CCN(C)C)[C@@H](c2cc(-c3ccc(C#N)cc3)cnc2OC)c2cccc(OC)c2F)cc(OC)n1 | MIC90 | - | - | resazurin | H37Rv | 0.98 µM |
| C[C@H]1COC2(CCN(C3=NC(=O)c4cc(C(F)(F)F)cc([N+](=O)[O-])c4S3(=O)=O)CC2)O1 | MIC | - | - | resazurin / fluorescence | H37Rv | 1.46 µg/mL |
| CC(C)(C)C1CCc2onc(C(=O)Nc3cnn(Cc4ccc(C(=O)NCCc5ccccc5)cc4)c3)c2C1 | MIC | - | - | resazurin | Rv3602c | >128 µM |
| COC1/C=C\C=C(/C)C(=O)Nc2cc3nc4cc(Br)ccc4oc-3c(c2=O)CC(C)CC(OC)C(O)C(C)/C=C(\C)C1OC(N)=O | MIC | - | - | - | ETA-R | 12.5 µg/mL |
| O=C(NNc1nc(Nc2ccccn2)nc(Nc2ccc(Cl)cc2Cl)n1)c1ccncc1 | inhibition | - | 0.0614 µM | BACTEC / radiometric | H37Rv | 92% |
| O[C@]12C=C(Cc3cnccn3)[C@@H]3CCN(CCCC/C=C\CC1)C[C@@]31C[C@@H]3CCCCCCN3C12 | MIC | - | - | - | H37Rv | 15.5 µg/mL |
| NNC(=O)C(Cc1cnc[nH]1)NC(=O)CNC(=O)C(CSC(c1ccccc1)(c1ccccc1)c1ccccc1)NC(=O)OCc1ccccc1 | inhibition | - | 12.5 µg/mL | BACTEC | H37Rv | -24% |
| CC(C)[C@H]1CO[C@]23CC[C@H](Nc4ccc(C(F)(F)F)cc4)C[C@H]2CCC(=O)N13 | MIC98 | - | - | resazurin | H37Rv | <1 µM |
| CC(C)(C)C1CCc2onc(C(=O)Nc3cnn(Cc4ccc(C(=O)O)cc4)c3)c2C1 | MIC | - | - | - | Rv3602c | >128 µM |
| CN1CC[C@]23c4ccccc4N[C@@H]1[C@]21CCN(C)[C@@H]3Nc2ccccc21 | MIC bound | - | - | BACTEC | H37Rv | >12.8 µg/mL |
| CC(C)[C@H]1CO[C@]23CC[C@@H](NCc4ccc(C(F)(F)F)cc4)C[C@H]2CCC(=O)N13 | MIC98 | - | - | resazurin | H37Rv | 1–10 µM |

Rows are shuffled and stem from different studies. Inhibition is in % at the dose shown (toxicity tests: loss of growth or viability). Two numbers with a dash give a range or band. Blank or dashed fields: not listed here. MIC50, MIC90 and the like: level of inhibition, or share of isolates inhibited. ECn: concentration that inhibits the pathogen or its effect by n%.